The values below come from ChEMBL document CHEMBL4811290, “Exploiting the hydrophobic channel of the NNIBP: Discovery of novel diarylpyrimidines as HIV-1 NNRTIs against wild-type and K103N mutant viruses” (Bioorg Med Chem, 2021).

In the assay the target is Human immunodeficiency virus type 1 reverse transcriptase (Human immunodeficiency virus 1, UniProt Q72547). Kind of assay: Inhibition of HIV-1 reverse transcriptase assessed as inhibition of biotin-dUTP incorporation into cDNA measured after 1 hr by ELISA.

Regarding `Cc1cc(C#N)cc(C)c1Oc1nc(Nc2ccc(C#N)cc2)nc(N)c1Br` [ETRAVIRINE], the IC50 (as a rule, the point on the concentration scale where inhibition reaches its midpoint) was found to be 48 nM.
